Test results published in ChEMBL document CHEMBL1789904, “Imaging of Plasmodium liver stages to drive next-generation antimalarial drug discovery” (Science, 2011).

Tested on: Plasmodium yoelii
Experiment: NOVARTIS: Antimalarial liver stage activity measured as reduction in Plasmodium yoelii schizont area in HepG2-A16-CD81 cells by immuno-fluorescence, and median schizont size at 10uM compound concentration

`CCCN(CCC)[P+](CC)(N(CCC)CCC)N(CCC)CCC` was tested, and the IC50 was 260 nM.
